Single amino acid changes in Zika NS2B-NS3 and viral growth

Protein: NS2B and the protease part of NS3 of Zika virus strain MR766. Positions count along the chain below; NS2B spans 2-131 and NS3 starts at 132.
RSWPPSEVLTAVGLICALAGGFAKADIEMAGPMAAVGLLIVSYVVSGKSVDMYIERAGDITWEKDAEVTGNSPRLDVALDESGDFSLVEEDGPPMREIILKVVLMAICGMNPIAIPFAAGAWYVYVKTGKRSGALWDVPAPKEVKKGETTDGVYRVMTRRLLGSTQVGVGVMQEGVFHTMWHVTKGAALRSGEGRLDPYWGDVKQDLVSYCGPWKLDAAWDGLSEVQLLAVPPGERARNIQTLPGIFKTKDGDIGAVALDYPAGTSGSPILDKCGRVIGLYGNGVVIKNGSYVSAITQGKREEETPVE

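Pools of virus carrying all single amino acid changes were selected for growth in Huh-7.5 cells. Sequencing of three replicate libraries (two for positions 207-308) was averaged into one effect per change. The study looked for pockets that tolerate few changes, as a guide for inhibitor design.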

Values are log2 effects on growth: 0 is wild type, lower means poorer growth.
Substitutions are written as wild-type residue, site number, new residue.
All changes here are to a stop codon.

| change | log2 effect |
|---|---|
| Y43* | -7.58 |
| V44* | -7.17 |
| V45* | -6.64 |
| S46* | -4.49 |
| G47* | -3.88 |
| K48* | -6.40 |
| S49* | -6.78 |
| V50* | -6.90 |
| D51* | -6.72 |
| M52* | -7.41 |
| Y53* | -5.87 |
| I54* | -7.77 |
| E55* | -3.77 |
| R56* | -7.54 |
| A57* | -6.79 |
| G58* | -7.60 |
| D59* | -6.92 |
| I60* | -7.90 |
| T61* | -8.04 |
| W62* | -8.43 |
| E63* | -4.45 |
| K64* | -8.10 |
| D65* | -7.50 |
| A66* | -7.57 |
| E67* | -4.68 |
| V68* | -7.30 |
| T69* | -7.82 |
| G70* | -3.97 |
| N71* | -7.53 |
| S72* | -7.38 |
| P73* | -6.89 |
| R74* | -7.90 |
| L75* | -7.97 |
| D76* | -7.61 |
| V77* | -8.13 |
| A78* | -7.32 |
| L79* | -7.74 |
| D80* | -7.48 |
| E81* | -4.37 |
| S82* | -7.98 |
| G83* | -2.47 |
| D84* | -7.07 |
| F85* | -6.74 |
| S86* | -6.93 |
| L87* | -8.30 |
| V88* | -6.56 |
| E89* | -6.09 |
| E90* | -4.19 |
| D91* | -6.30 |
| G92* | -5.75 |
| P93* | -6.22 |
| P94* | -6.07 |
| M95* | -7.34 |
| R96* | -6.90 |
| E97* | -4.35 |
| I98* | -7.59 |
| I99* | -7.59 |
| L100* | -6.92 |
| K101* | -8.33 |
| V102* | -8.17 |
| V103* | -7.07 |
| L104* | -7.98 |
| M105* | -7.93 |
| A106* | -6.58 |
| I107* | -7.03 |
| C108* | -6.34 |
| G109* | -5.15 |
| M110* | -6.39 |
| N111* | -5.23 |
| P112* | -5.29 |
| I113* | -6.53 |
| A114* | -6.78 |
| I115* | -6.56 |
| P116* | -6.88 |
| F117* | -7.04 |
| A118* | -6.23 |

The opening 7 entries, copied out:

{"change": "Y43*", "log2 effect": -7.58}
{"change": "V44*", "log2 effect": -7.17}
{"change": "V45*", "log2 effect": -6.64}
{"change": "S46*", "log2 effect": -4.49}
{"change": "G47*", "log2 effect": -3.88}
{"change": "K48*", "log2 effect": -6.40}
{"change": "S49*", "log2 effect": -6.78}

An asterisk is a stop codon; stop codons read about -7, near the floor of the assay.
Six mutants with high scores were retested singly and none clearly outgrew wild type, so positive values are not proof of better growth.
The region was split into three libraries (1-103, 104-206, 207-308).
The authors count -1 or higher as tolerated. Position 1 is the last residue of NS2A.

Data from the supplement of Ni et al. 2025, doi:10.1038/s41467-025-63602-z.